From patent publication US7399782B2, “Polyether brevetoxin derivatives as a treatment for cystic fibrosis, mucociliary dysfunction, and pulmonary diseases” (dated 2008)

Key:
[1] = system: conscious sheep; assay: Tracheal mucus velocity (TMV) in conscious sheep
[2] = system: sodium channels; details: cited from earlier work

Substance: β-Naphthoyl-PbTx-3
- effect on tracheal mucus velocity (TMV) ([1]; FIG. 2, 10 pg dose (n=2), versus control (vehicle)): about the same as control
- effect on tracheal mucus velocity (TMV) ([1]; FIG. 2, 100 pg dose (n=4)): rapidly increase TMV
- antagonism of the native toxin in channel activation ([2]; Purkerson-Parker 2000): effectively antagonizes the actions of the native toxin in channel activation
- effect on sodium channel openings ([2]; Purkerson-Parker 2000): reduces sodium channel openings
- effect on brevetoxin-induced opening of sodium channels [2]: blocks brevetoxin-induced opening of sodium channels
- opening of sodium channels in the steady state ([2]; steady state): does not elicit opening of sodium channels in the steady state
